Results of unrelated studies side by side (data: NIAID ChemDB).

Shared fields: tests in culture; agent: Human cytomegalovirus; method: plaque count; read-out: EC50

Blank or dashed fields: not listed here. ECn is the concentration giving n% inhibition of infection, replication or growth. Conditions beyond the fields shown may differ between rows.

SMILES	cell line	strain or isolate	value
Nc1nc(NC2CC2)c2ncn(C=C3CC3CO)c2n1	HFF	C9208/3-3-1	2.2 µM
Nc1ccn(C[C@@H](CO)OCP(=O)(O)O)c(=O)n1	MRC-5	GDGP53 (drug-resistant mutant)	15.7 µM
Nc1nc2c(ncn2COC(CO)CO)c(=O)[nH]1	HFF	C9209/1-4-4 drug-resistant	98 µM
CCCCCCCCCCCCCCCCCCOCCOP(=O)(O)CO[C@H](CO)Cn1ccc(N)nc1=O	MRC-5	C9209/1-4-4 drug-resistant mutant	0.004 µM
CCCCCCCC/C=C\CCCCCCCCOCCOP(=O)(O)CO[C@H](CO)Cn1ccc(N)nc1=O	HFF	VR4760 (foscarnet-resistant)	0.01 µM
Nc1nc2c(ncn2C=C2CC2CO)c(=O)[nH]1	HFF	Coffman	6.9 µM
Nc1nc2c(ncn2C=C2CC2CO)c(=O)[nH]1	-	VR6200 (ganciclovir-susceptible)	2 µM
CC(C)Nc1nc2cc(Cl)c(Cl)cc2n1[C@H]1O[C@@H](CO)[C@H](O)[C@@H]1O	MRC-5	C9003	0.56 µM
Nc1nc2c(ncn2COC(CO)CO)c(=O)[nH]1	-	R56	7 µM
COc1cccc(N2CCN(C3=Nc4c(F)cccc4[C@H](CC(=O)O)N3c3cc(C(F)(F)F)ccc3OC)CC2)c1	-	Clinical isolate 12	0.0022 µM
NC(=O)c1c(Cl)c(-c2cccnc2)n2c1CCCC2	HEL	DER521 (ganciclovir cidofovir-resistant)	0.0181 µM
CCCCCCCCCCCCOCCCOP(=O)(O)CO[C@H](CO)Cn1ccc(N)nc1=O	HFF	Toledo	0.03 µM
Nc1ccn(C[C@H]2COP(=O)(O)CO2)c(=O)n1	MRC-5	AD169	0.31 µM
Nc1nc2c(ncn2C[C@@H]2CC[C@@H](P(=O)(O)O)O2)c(=O)[nH]1	HFF	1117R3-1-2 cidofovir-resistant	0.06 µg/mL
Cn1cc(C(=O)NCc2ccc(Cl)cc2)c(=O)c2cc(CN3CCOCC3)ccc21	HFF	GR	0.7 µM
Nc1nc2c(ncn2COC(CO)CO)c(=O)[nH]1	MRC-5	AD169	2.2 µg/mL
CC(C)Nc1nc2cc(Cl)c(Cl)cc2n1[C@@H]1O[C@H](CO)[C@@H](O)[C@H]1O	MRC-5	AD169	7.5 µM
CCCCCCCC/C=C\CCCCCCCOCCCOP(=O)(O)CO[C@H](CO)Cn1ccc(N)nc1=O	HFF	C8914-6	0.03 µM
Nc1ccn(C[C@@H](CO)OCP(=O)(O)O)c(=O)n1	HEL	LY9990 (ganciclovir-resistant)	0.57 µM
CCCCCCCCCCCCCCCCCCOC[C@H](COP(=O)(O)CO[C@H](CO)Cn1ccc(N)nc1=O)OCc1ccccc1	HFF	Toledo	0.006 µM
CC/C=C\Cn1c(=O)sc2c(=O)[nH]c(N)nc21	-	17517 (DHPG-S)	0.16 µM
O[C@@H]1[C@H](O)[C@H](O)CO[C@H]1n1c(Br)nc2cc(Cl)c(Cl)cc21	HFF	C9209/1-4-4 drug-resistant	3.5 µM
O=C(NCc1ccc(Cl)cc1)c1c[nH]c2ccc(C#CCO)cc2c1=O	-	PHO	1.3 µM
OC[C@H]1O[C@@H](n2c(Br)nc3cc(Cl)c(Cl)cc32)[C@H](O)[C@@H]1O	HFF	C8706/13-1-1 (drug-resistant)	1.3 µM
CCCCCCCCCCCCCCCCOP(=O)(O)CO[C@H](CO)Cn1ccc(N)nc1=O	HFF	DAVIS	0.005 µM